From patent US20250090572A1 (priority 2020, published 2025)

Target: wild-type SARS-CoV-2 spike glycoprotein (SGP) receptor-binding domain (RBD) (Severe acute respiratory syndrome coronavirus 2, UniProt P0DTC2)
Design: unit not given beside the values

## pentosan polysulfate [PPS]
  IC50: 74
